A mixed list of measured activities; the numbers were collected in NIAID ChemDB.

Common to all: tests in culture; organism: HIV-1; read-out: EC50

Blank or dashed fields: not listed here.

SMILES	mutations	read by	cells	strain or isolate	result
O=C1CC(C(=O)N(CCCN2CCC(Cc3ccccc3)CC2)c2ccccc2)CN1Cc1ccccc1	-	luciferase	MOLT-4-CCR5+ + MOLT-4	JR-FL R5	0.49 µM
COC(=O)[C@H](C)NP(=O)(OC[C@@H]1C=C[C@H](n2cnc3c(NC4CC4)nc(N)nc32)C1)Oc1ccccc1	-	cytopathic effect	MT-4 + CEM	IIIB	0.2 µM
CC1=CC(=C(c2ccc(N)c(S(=O)(=O)O)c2)c2ccc(N)c(S(=O)(=O)O)c2)C=C(S(=O)(=O)O)C1=N	-	cytopathic effect	HuT-78	-	16 µM
CC(C)OC(=O)c1cc(NC(=S)OC(C)C)ccc1Cl	-	syncytia	CBMC	IIIB	0.38 µM
O=C(C(=O)N1CCN(C(=NCCN2CCOCC2)c2ccccc2)CC1)c1c[nH]c2c(Br)ccc(F)c12	-	luciferase	HeLa(CD4+) + HeLa	Luciferase reporter virus	<0.5 µM
Cc1ccc(OCCNc2ccc(-c3cnc(C)c([C@H](OC(C)(C)C)C(=O)O)c3N3CCC(C)(C)CC3)cn2)cc1F	-	luminescence	MT-2	NL4-3	0.0063 µM
Cc1cc(C)cc(C(=O)c2cc(Cl)ccc2OCC(=O)Nc2ccc(S(N)(=O)=O)cc2C)c1	RT-P225H	β-galactosidase	HeLa + HELA CD4+	HXB2	<0.01 µM
CC1(C)OCC(C2OC3OC(C)(C)OC3C2OS(=O)(=O)C(F)(F)F)O1	-	XTT	CEM MT-2 + CEM	-	>100 µg/mL
CN=C(c1ccccc1)N1CCN(C(=O)C(=O)c2c[nH]c3cccc(F)c23)CC1	-	luciferase	HeLa(CD4+) + HeLa	Luciferase reporter virus	>0.5 µM
OCC1OC(SC2C(OCc3ccccc3)OC(CO)C(O)C2O)C(O)C(O)C1O	-	XTT	CEM MT-2 + CEM	-	>100 µg/mL
Cc1cc2[nH]cnc2cc1NC(=O)COc1ccc(Cl)cc1C(=O)c1cc(F)cc(C(F)(F)F)c1	RT-V106A Y181C	β-galactosidase	HeLa + HELA CD4+	HXB2	0.101–1 µM
Cc1nn(C(C)C)c(Sc2cc(Cl)cc(Cl)c2)c1COCc1ccncc1	-	cytopathic effect / MTT	MT-4 + MT4	HXB2	0.004 µM
CC(C)C1=C2[C@H]3CC[C@@H]4[C@@]5(C)CC[C@H](OC(=O)CC(C)(C)C(=O)O)C(C)(C)[C@@H]5CC[C@@]4(C)[C@]3(C)CC[C@@]2([C@@H](O)CN(CCN(C)C)Cc2ccc(Cl)cc2)CC1=O	-	syncytia / visual reading / single cycle	CEM-SS + MAGIC-5A	Q23.17	0.0000028 µM
Nc1ccn([C@@H]2C=C(F)[C@H](CO)O2)c(=O)n1	-	PCR	PBMC	BRU-184V	<68.4 µM
C[C@@H]1CCO[C@H]2Cn3cc(C(=O)NCc4ccc(F)cc4F)c(=O)c(O)c3C(=O)N12	V75I	luciferase / luminescence	TZM-bl	-	0.0013 µM
CC(C)=CCc1c(O[C@@H]2O[C@H](CO)[C@@H](O)[C@H](O)[C@H]2O)cc2c(c1O)C(=O)[C@H](O)[C@@H](c1ccc(O)cc1)O2	-	syncytia	1A2	MC99 deltaTAT/REV	29.1 µg/mL
CC(C)=CCOc1cc(NC(=S)c2ccsc2C)ccc1Cl	RT-L100I	p24	CEM + CEM-SS	4XAZT+L100I (RT D67N K70R L100I T215Y K219Q)	0.1 µM
Nc1nc(NC2CC2)c2ncn([C@H]3C=C[C@@H](CO)C3)c2n1	-	antigen	MM + M/M	BaL	0.1 µM
CCCCCCCCCCCCCCCCc1ccc2ccccc2n1	-	-	CEM-4fx	-	>300 µM
COC1CN(C)C(=O)c2cc(NC(=O)NC(C)C)ccc2OC[C@H](C)N(Cc2ccc(-c3ccccn3)cc2)C[C@@H]1C	-	luminescence	HEK 293	NL4-3	2.37 µM
Cc1ncc(-c2ccc(OC(C)COCc3ccccc3)cn2)c(N2CCC(C)(C)CC2)c1[C@H](OC(C)(C)C)C(=O)O	-	luminescence	MT-2	NL4-3	0.0015 µM
Nc1nccc2c1ncn2[C@@H]1O[C@H](CO)[C@@H](O)[C@H]1O	-	p24	PBMC	14A-6/89 POST-AZT	0.059 µM
COc1cnc(-n2ccc(C)n2)c2[nH]cc(C(=O)C(=O)N3CCC(=C(c4ccccc4)c4cnccn4)CC3)c12	-	luciferase	HeLa	-	<1 µM
Cc1ccc(-n2c(C)nnc2SCC(=O)Nc2ccccc2I)cc1	RT-K103N Y181C	luciferase	HeLa + HeLa-JC53	NL4-3	0.22 µM
CCN1c2ncc(CCOc3ccc(NC(=O)NCC(=O)O)cc3C)cc2C(=O)N(C)c2cccnc21	-	p24	C8166	IIIB	0.01–0.05 µM
C[C@H]1CN(C(=NC#N)c2ccccc2)CCN1C(=O)C(=O)c1c[nH]c2c(-c3cc4ccccc4s3)ccc(F)c12	-	luciferase	HeLa(CD4+) + HeLa	Luciferase reporter virus	<0.5 µM
O=c1cc(-c2ccc(O)cc2)oc2c([C@@H]3O[C@H](CO)[C@@H](O)[C@H](O)[C@H]3O)c(O)cc(O)c12	-	syncytia	1A2	MC99 deltaTAT/REV	>125 µg/mL
COc1cnc(-n2ccnn2)c2[nH]cc(C(=O)C(=O)N3CCC(=C(c4ccccc4)c4nnc(C(C)C)o4)CC3)c12	-	luciferase	HeLa	-	<1 µM
C[C@H]1CN(C(=NC#N)c2ccccc2)CCN1C(=O)C(=O)c1c[nH]c2c(-n3ccnn3)ncc(F)c12	-	luciferase	HeLa(CD4+) + HeLa	Luciferase reporter virus	<0.5 µM
COc1cnc(-c2cnccn2)c2[nH]cc(C(=O)C(=O)N3CCC(=C(c4ccccc4)c4cnco4)CC3)c12	-	luciferase	HeLa	-	<1 µM
CC(C)COC(=O)N[C@H](Cc1ccccc1)C(=O)N[C@H](Cc1cccc2ccccc12)C(=O)N1CCC(C(=O)O[C@@H](CC(C)C)C(=O)N[C@H](C(N)=O)C(C)C)CC1	-	plaque count	HT4 + HT4-6C	BRU	14 µM
O=C(COc1ccc(Cl)cc1C(=O)c1ccccc1)Nc1ccc2cn[nH]c2c1	RT-Y181C	β-galactosidase	HeLa + HELA CD4+	HXB2	0.011–0.1 µM
CC(C)c1ccc2ccccc2n1	-	-	CEM-4fx	-	4.6 µM
CCCc1cc(=O)oc2c3c(c4c(c12)OC(C)(C)CC4)O[C@H](C)[C@@H](C)C3=O	RT-T139I	cytopathic effect / XTT	-	-	>100 µM
COc1cnc(-n2cnc(C)n2)c2[nH]cc(C(=O)C(=O)N3CCN(C(=N)c4ccccn4)CC3)c12	-	luciferase	HeLa(CD4+) + HeLa	Luciferase reporter virus	<0.5 µM
Cc1cc(S(N)(=O)=O)ccc1NC(=O)COc1ccc(Cl)cc1C(=O)c1cccc(C#N)c1	RT-G190E	β-galactosidase	HeLa + HELA CD4+	HXB2	<0.01 µM
Cc1ncc(-c2cnc(OCC3CCC3)c(F)c2)c(N2CCC(C)(C)CC2)c1[C@H](OC(C)(C)C)C(=O)O	-	luminescence	MT-2	NL4-3	0.0037 µM
Cc1nc(CCCCCCC(=O)c2ccccc2)n2nc(NCCCCCCCCCCN)ccc12	-	RT activity	CEM + CEM TK-	LAI	5.8 µM
CCN1c2ncc(CCOc3ccc(NC(=O)C4CC4C(=O)O)cc3C)cc2C(=O)N(C)c2cccnc21	RT-K103N Y181C	p24	C8166	-	>0.05 µM
COc1cnc(-c2cnc(N)nc2)c2[nH]cc(C(=O)C(=O)N3CCC(=C(C#N)c4ccccc4)CC3)c12	-	luciferase	HeLa	-	<1 µM
C[Si](C)(C)C#Cc1ccc2ccccc2n1	-	-	CEM-4fx	-	0.5 µM
COc1cccc(C(=C2CCN(C(=O)C(=O)c3c[nH]c4c(OC)ncc(OC)c34)CC2)c2ccccc2)c1	-	luciferase	HeLa	-	<1 µM
Cc1nc(CCCCCCC(=O)c2ccccc2)n2nc(NCCCCCCCCCCNCc3cn([C@H]4C=C[C@@H](CO)O4)c(=O)[nH]c3=O)ccc12	-	RT activity	CEM + CEM TK-	LAI	8.5 µM
CCN1c2ncc(CCOc3ccc(-c4ccc(O)cc4)cc3C)cc2C(=O)N(C)c2cccnc21	-	p24	C8166	IIIB	<0.01 µM
OCC1OC(SC2C(O)C(O)OC(CO)C2O)C(O)C(O)C1O	-	XTT	CEM MT-2 + CEM	-	>100 µg/mL
COc1ccc(OCCN(C)c2ccc(-c3cnc(C)c([C@H](OC(C)(C)C)C(=O)O)c3N3CCC(C)(C)CC3)nc2)cc1	-	luminescence	MT-2	NL4-3	0.0006 µM
CCN1c2ncc(CCOc3ccc(-c4csc(C(=O)O)c4)cc3C)cc2C(=O)N(C)c2cccnc21	-	p24	C8166	IIIB	<0.01 µM
COC1OC(CSC2OC(COC(C)=O)C(OC(C)=O)C(OC(C)=O)C2OC(C)=O)C(OC(C)=O)C(OC(C)=O)C1OC(C)=O	-	XTT	CEM MT-2 + CEM	-	>100 µg/mL
CCc1ccc(-n2c(C)nnc2SCC(=O)Nc2ccc(C)cc2Cl)c2ccccc12	RT-Y188L	luciferase	HeLa + HeLa-JC53	NL4-3	0.11 µM
CCCCCCCCCCCCCCCC(=O)OCC(COP(=O)(O)OCCNC(=O)[C@@H](NC(=O)[C@H](CC(C)C)OC(=O)C1CCN(C(=O)[C@@H](Cc2ccc3ccccc3c2)NC(=O)[C@H](Cc2ccccc2)NC(=O)OCC(C)C)CC1)C(C)C)OC(=O)CCCCCCCCCCCCCCC	-	plaque count	HT4 + HT4-6C	BRU	9.6 µM
CCN(CC)CCN=C(c1ccccc1)N1CCN(C(=O)C(=O)c2c[nH]c3c(Br)ccc(F)c23)CC1	-	luciferase	HeLa(CD4+) + HeLa	Luciferase reporter virus	<0.5 µM
O=C(O)[C@H]1O[C@@H](Oc2cc3oc(-c4ccccc4)cc(=O)c3c(O)c2O)[C@H](O)[C@@H](O)[C@@H]1O	-	-	HOS-CD4-CXCR4 + HOS	ENV(BAL31)	4 µM
CCCCCCCCCCCC/C=C/c1ccc2ccccc2n1	-	-	CEM-4fx	-	>100 µM
CCN1c2ncc(CCOc3ccc(-c4cccc(C(=O)O)c4)cc3)cc2C(=O)N(C)c2cccnc21	-	p24	C8166	IIIB	<0.01 µM
Cc1ccc(-n2c(C)nnc2SCC(=O)Nc2cccc(Cl)c2Cl)cc1	RT-K103N Y181C	luciferase	HeLa + HeLa-JC53	NL4-3	0.11 µM
Cc1nc(CCCCCCC(=O)c2ccccc2)n2nc(NCCCCCCCCN)ccc12	-	RT activity	CEM + CEM TK-	LAI	4.3 µM
CC(=O)OCC1OC=C(SC2OC(COC(C)=O)C(OC(C)=O)C(OC(C)=O)C2OC(C)=O)C(OC(C)=O)C1OC(C)=O	-	XTT	CEM MT-2 + CEM	-	>100 µg/mL
Cc1cc(OCCCS(N)(=O)=O)ccc1NC(=O)COc1ccc(Cl)cc1C(=O)c1cc(F)cc(C(F)(F)F)c1	RT-P225H	β-galactosidase	HeLa + HELA CD4+	HXB2	<0.01 µM
O=C1C=CC(=C(c2ccc(O)cc2)c2ccc(O)cc2)C=C1	-	cytopathic effect	HuT-78	-	>2.3 µM
Cc1ncc(-c2ccc(OCCOc3ccc(Cl)cc3)nc2)c(N2CCC(C)(C)CC2)c1[C@H](OC(C)(C)C)C(=O)O	-	luminescence	MT-2	NL4-3	0.0049 µM
CCN1c2ncc(CCOc3ccc(-c4ccc(CC(=O)O)cc4OC)cc3C)cc2C(=O)N(C)c2cccnc21	RT-K103N Y181C	p24	C8166	-	0.01–0.05 µM
Cc1cc(C#N)cc(C(=O)c2cc(Cl)ccc2OCC(=O)Nc2ccc(S(N)(=O)=O)nc2C)c1	RT-K103N G190A	β-galactosidase	HeLa + HELA CD4+	HXB2 (RT-K103N G190A) Recombinant	<0.01 µM
COc1cc(O)c2c(c1)OC(c1ccc(Oc3cc(-c4cc(=O)c5c(O)cc(O)cc5o4)ccc3O)cc1)CC2=O	-	syncytia	1A2	MC99 deltaTAT/REV	0.9 µg/mL
Cc1ccc(-n2c(SCC(=O)Nc3ccc(S(N)(=O)=O)cc3Cl)nnc2C(F)(F)F)c2ccccc12	RT-Y188L	luciferase	HeLa + HeLa-JC53	NL4-3	0.025 µM
O=C/C=C/c1ccc2ccccc2n1	-	-	CEM-4fx	-	0.5 µM
Cc1ncc(-c2ccc(OCCOc3ccc(F)cc3)nc2)c(N2CCC(C)(C)CC2)c1[C@H](OC(C)(C)C)C(=O)O	-	luminescence	MT-2	NL4-3	0.0017 µM
COc1cnc(-c2cnccn2)c2[nH]cc(C(=O)C(=O)N3CCC(=C(c4ccccc4)c4cnccn4)CC3)c12	-	luciferase	HeLa	-	<1 µM
Nc1nccc2c1ncn2[C@@H]1C=C(CO)[C@@H](O)[C@H]1O	-	p24	PBMC	18601 unpaired	0.046 µM
N=C(c1ccccc1)N1CCN(C(=O)C(=O)c2c[nH]c3c(-c4nccs4)ccc(F)c23)CC1	-	luciferase	HeLa(CD4+) + HeLa	Luciferase reporter virus	<0.5 µM
CCc1cc(C#N)cc(C(=O)c2cc(Cl)ccc2OCC(=O)Nc2ccc(S(N)(=O)=O)cc2C)c1	-	β-galactosidase	HeLa + HELA CD4+	WTRVA	<0.01 µM
N#CN=C(c1ccccc1)N1CCN(C(=O)C(=O)c2c[nH]c3cccc(F)c23)CC1	-	luciferase	HeLa(CD4+) + HeLa	Luciferase reporter virus	<0.5 µM
C=Cc1ccc2ccccc2n1	-	-	CEM-4fx	-	7.2 µM

Repeating the final 6 entries:

SMILES | mutations | read by | cells | strain or isolate | result
COc1cnc(-c2cnccn2)c2[nH]cc(C(=O)C(=O)N3CCC(=C(c4ccccc4)c4cnccn4)CC3)c12 | - | luciferase | HeLa | - | <1 µM
Nc1nccc2c1ncn2[C@@H]1C=C(CO)[C@@H](O)[C@H]1O | - | p24 | PBMC | 18601 unpaired | 0.046 µM
N=C(c1ccccc1)N1CCN(C(=O)C(=O)c2c[nH]c3c(-c4nccs4)ccc(F)c23)CC1 | - | luciferase | HeLa(CD4+) + HeLa | Luciferase reporter virus | <0.5 µM
CCc1cc(C#N)cc(C(=O)c2cc(Cl)ccc2OCC(=O)Nc2ccc(S(N)(=O)=O)cc2C)c1 | - | β-galactosidase | HeLa + HELA CD4+ | WTRVA | <0.01 µM
N#CN=C(c1ccccc1)N1CCN(C(=O)C(=O)c2c[nH]c3cccc(F)c23)CC1 | - | luciferase | HeLa(CD4+) + HeLa | Luciferase reporter virus | <0.5 µM
C=Cc1ccc2ccccc2n1 | - | - | CEM-4fx | - | 7.2 µM

ECn is the concentration giving n% inhibition of infection, replication or growth. Two numbers with a dash give a range or band. Rows are shuffled and stem from different studies.